Source: paper PMC4696656, “Insights into the Mechanism of Action of Bactericidal Lipophosphonoxins” (PLoS ONE, 2015)
“Also recorded” adds a separate entry of the source.

Tested on: B. subtilis
Assay: Localization of LPPOs within bacterial cells (fractionation, HPLC-MS)
Assay type: cell-based, Bacillus subtilis
Details: HPLC-MS of cell fractions

Structure (SMILES) | potential metabolites detected (monoacetylated compound)
CCCCCCCCCCCCCCCCOCCCOP(=O)(CCN1C[C@@H](O)[C@H](O)C1)OC[C@H]1O[C@@H](n2ccc(=O)[nH]c2=O)[C@H](O)[C@@H]1O (some centres unmarked) [DR5047] | < 5%
CCCCCCCCCCCCCCCCOP(=O)(CCN1C[C@@H](O)[C@H](O)C1)OC[C@H]1O[C@@H](n2ccc(=O)[nH]c2=O)[C@H](O)[C@@H]1O (some centres unmarked) [DR5026] | only intact DR5026 was detected; also recorded: No detectable amounts of potential metabolites were found
